A mixed list of measured activities; the numbers were collected in NIAID ChemDB.

All rows: whole-cell or culture tests; agent: HIV-1; cell line: MT-4; method: p24; read-out: EC95

Conditions beyond the fields shown may differ between rows. ECn: concentration that inhibits the pathogen or its effect by n%.

{"SMILES": "O=C1c2c(O)c(=O)n(C3CCCCC3)c(=O)n2CCN1Cc1ccc(F)cc1", "result": "<10 µM"}
{"SMILES": "CN1CCn2c(nc(C(=O)NCc3ccc(F)c(Cl)c3)c(O)c2=O)C(N(C)C(=O)C(=O)N(C)C)C1", "result": "<1 µM"}
{"SMILES": "Cc1ccc(-c2nnc(COc3ccc(Cl)c(Oc4cc(Cl)cc(C#N)c4)c3)o2)cc1", "result": "<20 µM"}
{"SMILES": "CC(=O)N1CCCC(n2c(=O)c(O)c3n(c2=O)CCN(Cc2ccc(F)cc2)C3=O)C1", "result": "<10 µM"}
{"SMILES": "N#Cc1cccc(Oc2cc(Cl)cc(OCC(=O)Nc3ccc(S(N)(=O)=O)cc3Cl)c2)c1", "result": "<20 µM"}
{"SMILES": "CC(=O)NC1CN(C)CCn2c1nc(C(=O)NCc1ccc(F)cc1)c(O)c2=O", "result": "<50 µM"}
{"SMILES": "CC(C)[C@H](NC(=O)OCc1ccccn1)C(=O)N[C@@H](Cc1ccccc1)[C@@H](O)C[C@H](Cc1ccccc1)NC(=O)OCc1cccnc1", "strain or isolate": "NL4-3", "changes": "PR-L10R L63P V82T I84V", "result": "1.5 µM"}
{"SMILES": "O=C1c2c(O)c(=O)n(C3CCCCCC3)c(=O)n2CCN1Cc1ccc(F)cc1", "result": "<10 µM"}
{"SMILES": "N#Cc1cc(Cl)cc(Oc2cc(OCc3[nH]nc4nc(N5CCNCC5)ccc34)ccc2Cl)c1", "result": "<20 µM"}
{"SMILES": "CCN(C(=O)C(=O)N(C)C)C1CN(C)CCn2c1nc(C(=O)NCc1ccc(F)cc1)c(O)c2=O", "result": "<1 µM"}
{"SMILES": "N#Cc1cc(Cl)cc(Oc2cc(F)cc(OCc3[nH]nc4nc(N)ccc34)c2)c1", "result": "<20 µM"}
{"SMILES": "CNC(=O)CN1CCn2c(nc(C(=O)NCc3ccc(F)cc3)c(O)c2=O)C1(C)C", "result": "<1 µM"}
{"SMILES": "CS(=O)(=O)c1ccc(NC(=O)COc2ccc(Cl)c(Oc3cc(Cl)cc(C#N)c3)c2)c(Cl)c1", "result": "<20 µM"}
{"SMILES": "O=C1c2c(O)c(=O)n(CC(F)(F)F)c(=O)n2CCN1Cc1ccc(F)cc1", "result": "<10 µM"}
{"SMILES": "N#Cc1cc(Cl)cc(Oc2cc(Cl)cc(OCc3[nH]nc4ccccc34)c2)c1", "result": "<20 µM"}
{"SMILES": "CON(C)CCC1CN(Cc2ccc(F)cc2)C(=O)c2c(O)c(=O)n(C(C)C)c(=O)n21", "result": "<10 µM"}
{"SMILES": "CN(C)C1COCCn2c1nc(C(=O)NCc1ccc(F)cc1)c(O)c2=O", "result": "<50 µM"}
{"SMILES": "O=C1c2c(O)c(=O)n(C3CCOC3)c(=O)n2CCN1Cc1ccc(F)cc1", "result": "<10 µM"}
{"SMILES": "CC(=O)N(C)C1CN(C)CCn2c1nc(C(=O)NCc1ccc(F)cc1)c(O)c2=O", "result": "<1 µM"}
{"SMILES": "Cc1cc(OCC(=O)Nc2ccc(S(N)(=O)=O)cc2Cl)cc(Oc2cc(Cl)cc(C#N)c2)c1", "result": "<20 µM"}
{"SMILES": "CC(=O)N1CCn2c(nc(C(=O)NCc3ccc(F)cc3)c(O)c2=O)C1C", "result": "<50 µM"}
{"SMILES": "COC(=O)C(CCSC)n1c(=O)c(O)c2n(c1=O)CCN(Cc1ccc(F)cc1)C2=O", "result": "<10 µM"}
{"SMILES": "CN1Cn2c(nc(C(=O)NCc3ccc(F)cc3)c(O)c2=O)C12CCCCC2", "result": "<1 µM"}
{"SMILES": "CC(C)n1c(=O)c(O)c2n(c1=O)C(CCO)CN(Cc1ccc(F)cc1)C2=O", "result": "<10 µM"}

Repeating the final 2 entries:

{"SMILES": "CN1Cn2c(nc(C(=O)NCc3ccc(F)cc3)c(O)c2=O)C12CCCCC2", "result": "<1 µM"}
{"SMILES": "CC(C)n1c(=O)c(O)c2n(c1=O)C(CCO)CN(Cc1ccc(F)cc1)C2=O", "result": "<10 µM"}